PubChem BioAssay AID745 (Emory University Molecular Libraries Screening Center, 2007)
The entries are a selection whose mix differs from that of the whole data set. Activity calls are given as the source filed them. No stated cut-off is given here; in the data, active means z-score below about -3; inactive means the rest.

experiment: inhibitors of measles virus growth in cells, primary screen, measles RdRp inhibitor project, cell-based, single point, HTS (AID 745); details: infected Vero cells, GFP fluorescence, 64 h; active compounds read low

Row | SMILES | z-score
1 | CC1CN(C)C(C)CC1Nc1ccccc1 (stereo unspecified) | inactive: 0.23
